Pooled drug test results. Numbers come from NIAID ChemDB, via PubChem.

Common to all: growth or infection tests; agent: HIV-1; measure: inhibition

Percent inhibition refers to the dose given; in toxicity tests it is the harm to the cells.

smiles,strain,cells,method,setting,dose,result
Cc1cn([C@H]2C[C@H](N=[N+]=[N-])[C@@H](CO)O2)c(=O)[nH]c1=O,IIIB,HuT-78 + HUT 78,p24 / ELISA,,0.003 µg/mL,90%
Cn1cc(C(=O)O)c(=O)c2cc(F)c(N3CC=C(c4ccccc4)CC3)c(C(F)(F)F)c21,IIIB,MOLT-4/U0(HIV-1(IIIB)) + MOLT-4,p24,,0.4 µM,90%
N[C@@H](CCC(=O)N[C@@H](CS)C(=O)NCC(=O)O)C(=O)O,IIIB,U-937,p24,,3000 µM,20%
O=C(OC[C@H]1O[C@@H](OC(=O)c2cc(O)c(O)c(O)c2)[C@H](O)[C@@H](OC(=O)c2cc(O)c(O)c(O)c2)[C@@H]1O)c1cc(O)c(O)c(O)c1,IIIB,MOLT-3,p24,,33 µg/mL,79%
C/C=C(\C)C(=O)O[C@@H]1[C@@H](OC(=O)/C(C)=C/C)[C@]2(C)[C@@H](C(C)=O)CC[C@@]23O[C@]32CC[C@H]3C[C@@H](O[C@H]4C[C@@H](OC)C(O[C@@H]5OC(C)C(O[C@@H]6OC(CO)C(O)[C@H](O)C6O)[C@H](OC)C5O)C(C)O4)CC[C@]3(C)[C@@H]12,,SupT1,luciferase,pseudotyped,30 µM,39.26%
c1cc(CN2CCCNCCNCCCNCC2)ccc1CN1CCCNCCNCCCNCC1,SW29 CLADE C R5,PBMC,p24,,0.1 µM,0%
COc1ccc(CN[C@@H](C(=O)N[C@H]2c3ccccc3C[C@H]2O)[C@H](O)[C@H](Cc2ccccc2)NC(=O)[C@@H](NC(=O)OCc2ccccc2)C(C)(C)C)cc1,HEM,Primary T4 cells + T4,p24,,0.23 µM,90%
COc1cc(O)c2c(=O)oc3cc(O)cc(C)c3c2c1,NL4-3,HEK293T,luciferase,pseudotyped,60 µM,70%
O=C1N(Cc2ccc(CO)cc2)[C@H](Cc2ccccc2)[C@H](O)[C@@H](O)[C@@H](Cc2ccccc2)N1Cc1ccc(CO)cc1,G clinical isolate,PBMC,p24,,0.16 µM,90%
C/C=C(\C)C(=O)O[C@@H]1[C@@H](OC(=O)c2ccccc2)[C@@H]2[C@@]3(C)CC[C@H](O[C@H]4C[C@@H](OC)[C@H](O[C@@H]5OC(C)[C@@H](O[C@@H]6OC(CO)[C@@H](O[C@@H]7OC(CO)[C@@H](O)[C@H](O)C7O)[C@H](O)C6O)[C@H](OC)C5O)C(C)O4)CC3=CC[C@@]2(O)[C@@]2(O)CC[C@H](C(C)=O)[C@@]12C,,SupT1,luciferase,pseudotyped,30 µM,41.32%
Cc1cn([C@H]2C[C@H](N=[N+]=[N-])[C@@H](COP(=O)(O)OC[C@H]3OC(O)[C@@H](O)[C@@H](O)[C@@H]3O)O2)c(=O)[nH]c1=O,LAV-Bru,CEM,RT activity,26 d,0.2 µM,0%
C/C=C(\C)C(=O)O[C@@H]1[C@@H](OC(=O)c2ccccc2)[C@H]2[C@@H](CC=C3C[C@@H](O[C@H]4C[C@@H](OC)[C@H](O[C@@H]5OC(C)[C@@H](O[C@@H]6OC(CO)[C@@H](O[C@@H]7OC(CO)[C@@H](O)[C@H](O)C7O)[C@H](O)C6O)[C@H](OC)C5O)C(C)O4)CC[C@@]32C)[C@@]2(O)CC[C@H](C(C)=O)[C@@]12C,,SupT1,luciferase,pseudotyped,30 µM,22.54%
[B-]P(=O)([O-])CC[C@@H]1C=C[C@H](n2cc(C)c(=O)[nH]c2=O)O1,IIIB,CEM,syncytia,,400 µM,0%
C/C=C(\C)C(=O)O[C@H]1[C@H]2[C@@H](CC[C@H]3C[C@@H](O[C@H]4C[C@@H](OC)[C@H](O[C@@H]5OC(C)[C@@H](O[C@@H]6OC(CO)[C@@H](O)[C@H](O)C6O)[C@H](OC)C5O)C(C)O4)CC[C@@]32C)[C@@]2(O)CC[C@H](C(C)=O)[C@@]2(C)[C@@H]1OC(=O)c1ccccc1,,SupT1,luciferase,pseudotyped,30 µM,25.52%
O=C(CCC(=O)Nc1ccn([C@H]2CC[C@@H](CO)O2)c(=O)n1)Nc1ccn([C@H]2CC[C@@H](CO)O2)c(=O)n1,,,cytopathic effect,,1 µM,90%
Cc1cn([C@H]2C[C@H](N=[N+]=[N-])[C@@H](CO)O2)c(=O)[nH]c1=O,LAV-Bru,CEM,RT activity,15 d,0.2 µM,94%
C/C=C(\C)C(=O)O[C@@H]1[C@@H](OC(=O)/C(C)=C/C)[C@]2(C)[C@@H](C(C)=O)CC[C@]2(O)[C@]2(O)CC[C@H]3C[C@@H](O[C@H]4C[C@@H](OC)[C@H](O[C@@H]5OC(C)[C@@H](O[C@@H]6OC(CO)[C@@H](O)[C@H](O)C6O)[C@H](OC)C5O)C(C)O4)CC[C@]3(C)[C@@H]12,,SupT1,luciferase,pseudotyped,30 µM,39.74%
O=S(=O)(O)c1cc(N=C=S)ccc1CCc1ccc(N=C=S)cc1S(=O)(=O)O,GB8,JM,syncytia,,25 µg/mL,93%
CO[C@@H]1C(O)[C@H](O[C@@H]2C(C)O[C@@H](O[C@H]3CC[C@@]4(C)C(=CC[C@@H]5[C@@H]4[C@H](OC(C)=O)[C@@H](OC(=O)c4ccccc4)[C@]4(C)[C@@H](C(C)=O)CC[C@]54O)C3)C[C@H]2OC)OC(C)[C@H]1O[C@@H]1OC(CO)[C@@H](O[C@@H]2OC(CO)[C@@H](O)[C@H](O)C2O)[C@H](O)C1O,,SupT1,luciferase,pseudotyped,30 µM,47.75%
Cc1cn([C@H]2C[C@H](N=[N+]=[N-])[C@@H](COP(=O)(O)OC[C@H]3OC(O)[C@H](O)[C@@H](O)[C@@H]3O)O2)c(=O)[nH]c1=O,LAV-Bru,CEM,RT activity,26 d,0.2 µM,0%
CC(=O)O[C@H]1C[C@@]2(C)[C@@H](C[C@@H](O)[C@H]3[C@@]4(C)CC[C@@H](O)[C@@H](C)[C@@H]4CC[C@@]32C)/C1=C(\CCC=C(C)C)C(=O)O,ARV-2,C8166,syncytia,,100 µg/mL,100%
C/C=C(\C)C(=O)O[C@H]1[C@H]2[C@@H](CC=C3C[C@@H](O[C@H]4C[C@@H](OC)[C@H](O[C@@H]5OC(C)[C@@H](O[C@@H]6OC(CO)[C@@H](O)[C@H](O)C6O)[C@H](OC)C5O)C(C)O4)CC[C@@]32C)[C@@]2(O)CC[C@H](C(C)=O)[C@@]2(C)[C@@H]1OC(=O)/C(C)=C/C,,SupT1,luciferase,pseudotyped,30 µM,25.14%

The first 2 rows once more:

smiles | strain | cells | method | setting | dose | result
Cc1cn([C@H]2C[C@H](N=[N+]=[N-])[C@@H](CO)O2)c(=O)[nH]c1=O | IIIB | HuT-78 + HUT 78 | p24 / ELISA |  | 0.003 µg/mL | 90%
Cn1cc(C(=O)O)c(=O)c2cc(F)c(N3CC=C(c4ccccc4)CC3)c(C(F)(F)F)c21 | IIIB | MOLT-4/U0(HIV-1(IIIB)) + MOLT-4 | p24 |  | 0.4 µM | 90%

Rows are shuffled and stem from different studies. An empty or dashed field is not shown.